## Primary screen of a compound library

Measurements from “University of Dundee, Small-Polar-MMV Screening Library” (2021), ChEMBL document CHEMBL3988442.

Mtb glucose medium: 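Whole-cell growth test on Mycobacterium tuberculosis, read after 3 days in glucose-containing 7H9 medium; the read-out is not stated. Compounds at 50 µM. Direction is inferred from retests: higher values go with more growth inhibition. Of about 69,000 compounds tested this way, about 760 (1.1%) reached 50% or more in at least one test.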
Mtb cholesterol medium: 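Whole-cell growth test on Mycobacterium tuberculosis, read after 4 days in a medium based on cholesterol and the lipid DPPC; the read-out is not stated. Concentration: 50 µM. Higher reads as more growth inhibition (inferred: compounds with an IC50 in retests scored well above the rest). About 69,000 compounds were tested under these conditions; 0.54% (about 370) showed 50% or more at least once.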

Each number is a percent effect as filed.
How 0% and 100% were set is not recorded. Most values in the screen are low, and negative values occur.
This is part of a subset picked to be rich in strong results.
Two or more numbers in one place are separate tests of the same structure; such repeats can differ widely.
A dash means the value is not listed here; it may have been measured.

SMILES	Mtb glucose medium	Mtb cholesterol medium
Cn1ccnc1CN1CCC2(CC1)CN(c1cncnc1)C(=O)CO2.O=C(O)C(F)(F)F	-18.54	-
CCC(C)Oc1cc(C(=O)Nc2nnc(C(C)C)[nH]2)ccn1 (stereo not given)	-	22.21
Cc1ccc(N2N=C(C(N)=O)S(=O)(=O)c3cccnc32)cc1	101.9	87.26
COc1ccc(CNc2nncs2)cc1F	0.5535 and -29.14	-15.82
CN(C)c1ncccc1CNS(=O)(=O)c1cc(F)cc(F)c1	5.069	-
Cl.Clc1ccccc1CN1CCc2nc(C3CCCCN3)ncc2C1 (stereo not given)	20.3	-
CN(Cc1nc(Cc2cccc(C(F)(F)F)c2)no1)C(C1CC1)C1CC1	48.28 and 22.12	-
Br.O=C(CN(C1=NCCCC1)c1ccccc1)c1ccccc1	-36.45 and -5.856	-12.03
CC(=O)N(c1ccc(C)cc1)c1nc(CN2CCCCC2C)cs1 (stereo not given)	-14.68	-
COc1ccc(NC(=O)CSC(F)(F)F)cn1	9.553	-11.92
CNCc1nc(-c2ccc3c(c2)OCO3)c[nH]1.Cl.Cl	-32.47 and -2.545	-
CCCc1nc(N(C)Cc2ccco2)c2c(n1)c(C)nn2CC	58.5	53.88
CN1CCCN(C(=O)c2cnsn2)c2cc(F)ccc21	-10.29	-
Cc1nc(C(=O)N(CC(=O)N(C)C)CC(F)(F)F)c2ccccn12	1.278 and -4.286	-
[H][C@@]12CCCN1CCCN(c1nc(CCC)nc3c1cnn3C)C2	-11.22	-
CCS(=O)(=O)N1CCC(c2nnc(CN3CCCCC3)n2C)CC1	-	-8.767
CN1CCCC(c2cccc(-c3cccc(C(F)(F)F)c3)n2)C1 (stereo not given)	64.12	54.47
Cn1ccc(-c2cc(C(=O)N3CCC(O)CC3)c3ccccn23)n1	90.84	-
CC1Oc2c(cccc2C(=O)N2CCCCCC2)NC1=O (stereo not given)	-	-7.945
O=C(Cc1ccc2c(c1)CCCC2)Nc1cccnc1N1CCSCC1	84.21	82.11
CCS(=O)(=O)NCCNc1cc(-n2cccc2)ncn1	8.41 and 18.33	-
COc1ccc(CCCC(=O)N2CCCC(n3cccn3)C2)cc1 (stereo not given)	-20.74	-
CCN(Cc1ccc(Cl)c(Cl)c1)C(=O)CCn1cncn1	0.8887 and -1.542	26.36
O=C(Nc1cnn(Cc2ccc(F)cc2Cl)c1)C1CC1	50.41	-
Cc1cccc(N2CCN(CCS(=O)(=O)c3ccc(Br)cc3)CC2)c1C	56.95	-
CC(C)NC(=O)C(C)S(=O)(=O)c1cc2c(cc1Cl)OCCO2 (stereo not given)	3.789	-
Cc1cncc(NCc2ccccc2N2CCOCC2)c1	-	53.3
FC(F)(F)c1ccc2nc([C@H]3CCN(C4CCOCC4)C3)[nH]c2c1	10.14 and 7.513	19.74
CSCCC1c2nc[nH]c2CCN1Cc1cc(Cl)ccc1O (stereo not given)	56.95	-
COc1cc(CN2CC[C@@H](N3CCCCCC3)[C@H](O)C2)cc(Cl)c1OC	24.72	-
Cc1nc(N)cc(N2CCCC(COc3cccc(F)c3)C2)n1 (stereo not given)	61.39	87.21
Cc1ccc(OCCN(C)Cc2ccc(S(=O)(=O)N(C)C)o2)cc1	-	17.16
O=C(c1ccno1)N1CCCC(c2ncncc2-c2ccncc2)C1 (stereo not given)	-	69.39
CCc1ccccc1OC1CN(C(=O)c2ccsc2)C1	53.6	52.69 and 46.91
NC(=O)C1=NC2=NS(=O)(=O)c3ccccc3N2N1Cc1ccc(Br)cc1	13.44	38.82
CC(C)CN1Cc2nc(N3CCC(O)CC3)ncc2C1=O	2.032	-
Cc1ccccc1Cn1nnc2cc3c(cc2c1=O)OCCO3	-7.333	-
CCn1nnc(NCc2cc(Br)cc(Br)c2OC)n1	38.15	-
Cc1cccc2c1CCN(c1cc(N3CCCC3CO)ncn1)C2 (stereo not given)	27.37	-
COCCC1(CNC(=O)Nc2ccc(-n3nccn3)cc2)CCC1	23.16	-
CN1N=C(C(=O)N2CCCC(CCc3ccccc3F)C2)CCC1=O (stereo not given)	11.47	-
CC(Cn1ccnc1)NC(=O)Cc1ccc2c(c1)OCCO2 (stereo not given)	-	-15.8
NC(=O)NC(=O)CN1CCN(c2nccs2)CC1	15.63	-
COc1cccc(CNCCNS(=O)(=O)Cc2ccccc2)c1	-1.363 and -13.47	-3.379
CS(=O)(=O)N1CCc2[nH]cnc2C12CCN(C(=O)c1cccnc1)CC2	-	-4.15 and -11.82
CN(C)CC1(O)CCCN(C(=O)Cn2ccc3ccccc32)CC1 (stereo not given)	2.586 and -26.81	-4.374
NC(=O)c1nnn(-c2ccc(Cl)cc2)n1	51.2	-
Cc1ncccc1CNCC1COC2(CCCCC2)O1 (stereo not given)	12.97	3.21
CCN1CCC(CNCc2cc(OC)ccc2OC)C1 (stereo not given)	-	-14.6 and -0.5244
COc1ccc(C(=O)NCCCC2(C3OCCO3)CCOCC2)cc1	11.92 and 111.8	-
CC(Cn1cccn1)NS(=O)(=O)Cc1ccc(F)cc1 (stereo not given)	-18.68	-
CCC(CO)NCc1ccc(-c2ccccc2F)o1 (stereo not given)	4.278 and 29.07	28.98
Cc1nnc(CN(Cc2ccccc2Br)C2CC2)o1	33.74 and 60.33	-
C=C/C=c1\c(=C/C)oc2c(NCc3ccccc3)nc(CC)nc12	69.24	58.86
Cc1ncc(C(=O)NCCNC(=O)c2ccccc2)s1	-11	-
Cc1ccccc1-c1cc(C(=O)N2CCn3c(C)nnc3C2)[nH]n1	20.44	-
Cc1nn(C)c(Cl)c1C1CCCN1C(=O)c1ccc(N(C)C)nn1 (stereo not given)	3.673 and -6.834	-
CCC(CC)C(=O)NCCc1ccn(-c2ccccc2)n1	-7.766	-20.56
CN(C)S(=O)(=O)c1ccc(CNC(=O)C2CC(=O)N(C(C)(C)C)C2)cc1 (stereo not given)	-	14.9 and -0.162
CCOC(=O)N1CCN(C(=O)C2CC(=O)N(c3ccccc3Br)C2)CC1 (stereo not given)	59.44	55.4
COCCC1(CO)CCCN(C(=O)CCC(F)(F)F)C1 (stereo not given)	-34.47 and 8.608	28.01
Cc1csc(CNC(=O)N2CCN(Cc3ccco3)CC2)n1	0.3863	-